tested on: Suberitine; details: Suberitine 3 µg/mL (0.4 µM) preincubated with retinoid 15 min at 37 °C; indirect erythrocyte read-out

Going from `CC1=C(/C=C/C(C)=C/C=C/C(C)=C/C(=O)O)C(C)(C)CCC1` [all-E-retinoic acid] to `CC1=C(/C=C/C(C)=C/C=C/C(C)=C/CO)C(C)(C)CCC1` [all-E-retinol], the “% reduction of hemagglutination activity at the same ratio” value rises from 19% to 34%.

In the case of `CC1=C(/C=C/C(C)=C/C=C/C(C)=C/C=C/C=C(C)/C=C/C=C(C)/C=C/C2=C(C)CCCC2(C)C)C(C)(C)CCC1` [β-carotene], the “% reduction of hemagglutination activity at the same ratio” value was 27%.

— publication PMC3280542, “Differential Expression of the Demosponge (Suberites domuncula) Carotenoid Oxygenases in Response to Light: Protection Mechanism Against the Self-Produced Toxic Protein (Suberitine)” (Marine Drugs, 2012)
